# Values of other authors in patent publication US9427426B2 (priority 2008, dated 2016).
# System: rat
# Details: in vivo; cited from earlier work
structure (smiles),measurement,value
CC(=O)Nc1ccc(O)cc1 [Paracetamol],LD50 per os,1944 mg/kg
